# Screening data, single-dose tests

Measurements from “University of Dundee, Small-Polar-MMV Screening Library” (2021), ChEMBL document CHEMBL3988442.

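Whole-cell growth test on Mycobacterium tuberculosis, read after 3 days in glucose-containing 7H9 medium; the read-out is not stated. Compounds at 500 µM. Direction is inferred from retests: higher values go with more growth inhibition. Of about 18,000 compounds tested this way, about 1,400 (7.9%) reached 50% or more in at least one test.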

Results are given as percent effect. The record does not define 0% and 100%; most values in the screen are far below 50% and negative numbers occur (in some assays of this library far below -100). This is part of a subset picked to be rich in strong results.

| SMILES | effect |
|---|---|
| `Cc1cccc(C(C)(C)N)c1` | -5.164 |
| `Cc1nc(N)sc1C(=O)NC(c1cccnc1)C(C)C` (centres unmarked) | 14.18 |
| `COc1ccc(CC(N)=O)cc1OC` | -2.151 |
| `CN1CCCN(C(=O)c2ccc(F)cc2)CC1` | -4.381 |
| `COc1cnc(N2C[C@H](C(C)C)[C@@H](N)C2)nc1` | 17.89 |
| `CC1(N)Cc2ccccc21` (centres unmarked) | 0.06852 |
| `O=C(c1c(F)cccc1Cl)N1CCNCC1` | 6.897 |
| `CC1(C)CCC(CO)O1` (centres unmarked) | 10.61 |
| `Cc1cnc(C(=O)Nc2ncccc2O)cn1` | 9.367 |
| `CC(C)(C)OC(=O)N1CCCC1CN` (centres unmarked) | 69.27 |
| `Cc1noc(NCc2cc3ccccc3nc2O)n1` | -5.32 |
| `O=C(NC1=NCCS1)c1csc(Br)c1` | 35.32 |
| `CCN1CCN(CC(=O)Nc2cc(C)cc(C)c2)CC1` | 42.82 |
| `c1c[nH]c(C2CCNCC2)n1` | -2.624 |
| `CC(C)c1noc(CCNC(=O)Cc2ccncc2)n1` | 15.95 |
| `N#Cc1cnn(-c2ccccc2)n1` | -3.929 |
| `O=C(c1cscn1)N1CCN(c2ccc(Cl)cn2)CC1` | 81.54 |
| `CC1c2ccsc2CCN1C(=O)c1ccncc1` (centres unmarked) | 13.66 |
| `Cc1cc(CN)c(C)n1C` | 37.3 |
| `CC(C)C(=O)N(C)CCC(N)C(C)C` (centres unmarked) | 0.02861 |
| `COC(=O)c1cc(CN2CCCSCC2)oc1C` | -1.471 |
| `CCNC(=O)c1cn2ccc(C)cc2n1` | 4.273 |
| `O=S(=O)(CCN1CC[C@@H](O)C1)c1cccc(Br)c1` | 93.1 |
| `O=C(NC1CCc2ccc(F)cc21)c1c[nH]nn1` (centres unmarked) | 53.79 |
| `CCC(CC)C(=O)NC1CCN(C)CC1` | 3.96 |
| `CC(CNC(=O)c1cc(O)cs1)CN1CCOCC1` (centres unmarked) | -5.445 |
| `O=C(Cc1cccc(O)c1)NCCCn1cncn1` | 3.247 |
| `O=C(NCCSCc1ccco1)c1cccnc1O` | 1.933 |
| `CCc1ccc2c(c1)[C@@H](N)CCO2` | 53.99 |
| `CC(C)c1nnc(CNC(=O)NCC(F)(F)F)n1C` | -5.202 |
| `CC(C)C(C)NC(=O)CS(=O)(=O)Cc1ccccc1` (centres unmarked) | 34.33 |
| `O=C(CC1CCNC1)N1CCC(c2ncc[nH]2)CC1` (centres unmarked) | -0.5045 |
| `CNC(=O)[C@@H]1CN(C(=O)c2cc(C)n[nH]2)C[C@H]1COC` | -6.858 |
| `c1ccc(NC2CCN(C3CCCC3)C2)nc1` (centres unmarked) | 55.99 |
| `CC(=O)c1ccc(C(=O)NC(C)c2nc(C)c[nH]2)s1` (centres unmarked) | -2.637 |
| `CN(C)C(=O)CNC(=O)c1cc2ccccc2cc1O` | 1.175 |
| `O=C(NCCO)c1cc2c(F)cc(Br)cc2[nH]1` | 64.99 |
| `COc1ccc(C(C)=O)cc1CN1CCC[C@H]1CO` | 28.87 |
| `CCCS(=O)(=O)NCC(O)Cc1ccccc1` (centres unmarked) | 69.93 |
| `Cc1cc(C(=O)NCCNc2ncccn2)on1` | 8.583 |
| `Cc1cc(C(=O)NCC(C)c2nc(C)cs2)nc(N)n1` (centres unmarked) | 44.67 |
| `CCc1ccc(C(=O)NCCCN2CCCC2=O)s1` | -6.704 |
| `Cc1ccc(C#N)cc1NC(=O)N1CCOCC1` | 14.49 |
| `CCOC(=O)CC1C(=O)NCCN1CCC#N` (centres unmarked) | -1.454 |
| `CCC(C)n1nc(C)cc1NC(=O)NCCNC(C)=O` (centres unmarked) | 9.224 |
| `CC(C)(C)Sc1cc(CNC(=O)C2CCCN2)ccn1` (centres unmarked) | 6.774 |
| `Cc1noc(C)c1CN1CCCC(CNS(C)(=O)=O)C1` (centres unmarked) | 13.89 |
| `COCCC1(C(=O)N2CCC(CO)C2)CCC1` (centres unmarked) | 31.32 |
| `NCCN1CCN(c2ccc(F)cc2)CC1` | 44.43 |
| `Cc1noc(C)c1CN(C)C(=O)NCC(C)N(C)C` (centres unmarked) | -10.67 |
| `CCN(CC)C(=O)NCCCOC(C)C` | 32.3 |
| `Cc1ccccc1C(=O)N1CCC2(CC1)OCC(C)O2` (centres unmarked) | 43.18 |
| `CC(CCO)NCc1ccccc1` (centres unmarked) | -0.4929 |
| `CC(C)(C)OC(=O)NCC1CNCCO1` (centres unmarked) | 8.563 |
| `c1cn(C2CCCNC2)nn1` (centres unmarked) | -5.985 |
| `O=C1C=CC(=O)N1Cc1ccc(Cl)cc1` | 100.7 |
| `O=C(N[C@@H]1COCC[C@H]1O)C1(CO)CC1` | 2.379 |
| `CCCNC(=O)CC(NCCC)C(N)=O` (centres unmarked) | 9.658 |
| `CC(C)CN(CC(N)=O)CC(=O)NC1CC1` | -12.98 |
| `CN(C(=O)CCNC(=O)C1CCCO1)c1ccccc1` (centres unmarked) | 11.22 |
| `Cc1cnn(-c2ccc(C(C)N)cc2F)c1` (centres unmarked) | -1.548 |
| `Nc1nc(SCc2ccccc2F)n[nH]1` | 12.13 |
| `Cc1nnc(CNC(=O)COc2ccc(F)cc2F)o1` | 0.1211 |
| `CC(=O)Nc1ccc(F)c(S(=O)(=O)N2CCOCC2)c1` | 11.69 |
| `COc1cc(C(=O)NCCC(C)C)cc(OC)c1OC` | 6.718 |
| `CNC(C)c1ccccn1` (centres unmarked) | 3.488 |
| `CCOc1ccc(NC(=O)CNC)cc1OCC` | 18.51 |
| `CCCN(CC(=O)OC)S(=O)(=O)CCCC#N` | 2.256 |
| `CCC(OC)C(=O)NCCCn1ccnc1C(C)C` (centres unmarked) | 17 |
| `NC(=O)NCc1ccc(N2CC=CC2)cc1` | -2.54 |
| `Cc1occc1[S+]([O-])CC(=O)c1ccc[nH]1` (centres unmarked) | 2.473 |
| `N[C@H]1CN(S(=O)(=O)c2cccc(Cl)c2)C[C@@H]1C1CC1` | 71.14 |
| `CCC(=O)c1cccc(OC)n1` | -3.029 |
| `COC(CN)CC(C)C` (centres unmarked) | 8.302 |
| `CS(=O)(=O)NCc1nc(CCc2ccccc2)no1` | 44.17 |
| `CCCC(=O)Nc1ccc(S(=O)(=O)NCC)cc1` | 8.022 |
| `Cn1nccc1CC(=O)OCCN1CCCCC1=O` | -15.59 |
| `Cc1cc(C)cc(OCC(=O)N2CCOCC2)c1` | 55.68 |
| `c1csc(CSCCNC2=NCCN2)c1` | 54.98 |
| `Cn1cc(Cl)cc1C(=O)Nc1nncs1` | 44.78 |
| `COC1CCN(C(=O)Cc2ccc(N(C)C)cc2)C1` (centres unmarked) | 56.98 |
| `COCC(C)NC(=O)CSc1nc(N)c2ccsc2n1` (centres unmarked) | 20.2 |
| `CCNC(=O)[C@@H](NC(=O)c1ccccc1)C(C)C` | 7.429 |
| `CCc1noc(Cn2nc(C(F)(F)F)ccc2=O)n1` | 50.55 |